Assay results as given in the supplement of paper PMC9931576.
Human monoclonal antibodies against the spike receptor-binding domain (heavy:light variable regions). IC50 against pseudoviruses bearing the spike of naturally observed variants; lower = stronger; >10 µg/ml means not reached at the top dose. No active / inactive call. The stated detection limit is 0.0005 µg/ml; values near or below 0.001 µg/ml lie at the floor of the assay.

B1: BD56-1774 (protein)
chain 1: QVQLVESGGGVVQPGRSLRLSCAASGFSFSNYAIHWVRQAPGKALEWVSGISRDGSLTFYADSVKGRFTISRDNSKNTLYLQMNSLRAEDTAVFYCAREFDFGDYRPGWFDPWGQGTLVTVSS
chain 2: DIQMTQSPSSLSASVGDRVTITCRASQNINNYLNWYQQKPGKAPKLLIYAASSLQSGVPSRFSGSGSGTDFTLTISSLQPEDFATYYCQQSYGTPPWTFGQGTKVEIQ
B2: BD56-1776 (protein)
chain 1: EVQLVESGGGLVQPGGSLRLSCSASGFTFSSYAMHWVRQAPGKGLEYVSTISTNGGSTYYADSVKGRFTISRDNSKNMLYLQMSSLRAEDTAVYYCVKGNYLEYYYESTNDYWGQGTLVTVSS
chain 2: DIQMTQSPSSLSASVGDRVTITCRASQSISGYLNWYQQKPGKAPKLLISGASSLHSGVPSRFSGSGSGTDFTLTISSLQPEDFATYYCQQTYITPQTFGQGTKVEIK
B3: BD56-1778 (protein)
chain 1: QVQLVESGGGVVQPGRSLRLSCAASGFSFSTYAMHWVRQAPGKGLEWVAVILDDGSSKIYADSVRGRFTISRDNSRNTLYLQMNSLSSEDTAVYYCARDEALVGATTLFDYWGQGTLVTVSS
chain 2: DIQMTQSPSSLSASVGDRVTITCRASQSVVRFLNWYQQRPGKAPKLLIYGASTLQTGVPSRFGGSGSGTDFTLTISSLQPEDFATYYCQQSYSTPPWTFGQGTKVEIK
B4: BD56-1783 (protein)
chain 1: QVQLQESGPGLVKPSGTLSLTCTVSGGSISSYYWSWIRQPPGKGLEWIGCIYYSGNTNYNPSLKSRVTISVDTSKNQFSLKLSSVTAADTAVYYCAGDYFDSTGYYYGFDYWGQGSLVTVSS
chain 2: EIVLTQSPGTLSLSPGERATLSCRASQTVSSSSLAWYQQKPGQAPRLLIYGTSSWATGIPDRFSGSGSGTDFTLTISRLEPEDFAVYYCQHYGDSRTFGQGTRVEIK
B5: BD56-1785 (protein)
chain 1: EVQLVESGGGLVQPGRSLRLSCAASGFPFDDYAMHWVRQAPGKGLEWVSGISWNGGVIGYADSVKGRCIISRDNAKNSLYLQMNSLRAEDTALYYCVKDMSGGDYQHYFDHWGQGTLVSVSS
chain 2: SYVLTQPPSVSVAPGKTARITCGGNYIGSKSVHWYQQRPGQAPVLVVHDDSDRPSGIPERLSGSKSGNTATLTISRVEAGDEADYYCQMWDSSSDVYVFGTGTKVTVL
B6: BD56-1789 (protein)
chain 1: QVQLVQSGAEVRRPGSSVKVSCKASGGTFSSYTISWVRQAPGQGLEWMGRIIPVLGIPKYAQKFEGRVTITADKSTSTAYMEVNSLRSEDTAVYYCARDKDYSGSGSVYAMDVWGQGTTVAVSS
chain 2: QSVLTQPPSVSGAPGQRVTISCTGSNSNIGAGYDVHWYQKFPGTAPKLLIYVNNNRPSGVPDRFSGSQSGTSASLAITGLQPEDEADYYCQSYDSSLTDVVFGGGTKLTFL
B7: BD56-1791 (protein)
chain 1: QWQLQESGPGLVKPSETLSLTCTVSGGSIASPTSSYYWAWVRQPPGKGLEWIGSMYYSGNTYLNPSLKSRVTISLDTSKNQFSLKLTSVTVADTAVYYCTREDPDLGIGGSFDYWGQGRLVTVSS
chain 2: DIQLTQSPSSLSASVGDRVTITCRASQGISNYLAWYQQRPGKAPKLLIYTASTLQSGVPSRFSGSGSGTDFTLTISSLQPEDFATYYCQKLNSYPPMYTFGQGTKLEIK
B8: BD-449 (protein)
chain 1: QVQLVESGGGVVQPGRSLRLSCVASGFTFSNYDMHWVRQAPGKGLEWVTVISSDGNNRRYADSVKGRFTISRDNSKNMLYLQMNSLKAEDTAVYYCARDEVIAVATGEGMDVWGQGTTVTVS
chain 2: EIVMTQSPAILSVSPGERATLSCRASQSVTRNLAWYQQKPGQAPRLLIYGASTRATNIPARFSGSGFGTEFTLIISSLQSEDFAVYYCQQYSNWPLYTFGQGTKLEIK
B9: BD56-1795 (protein)
chain 1: QVQLVQSGAEVKKPGSSVKVSCKASGGTFSSSSITWVRQAPGQGLEWMGRVIPILNIPNYAQKFQGRLRIIADKSTGTAYLDLSSLRSEDTAFYYCAREPIEYNYDTSGLHSEYFQDWGQGTLVTVSS
chain 2: QSVLTQTPSVSGAPGQRVTISCTGSNSNIGAGYDVHWYQQLPGTAPKLLIFGNNNRPSGVPDRFSGSKSGTSASLAITGLQADDEADYYCQSYDSSLSGSVFGGGTKLTVL
B10: BD56-1800 (protein)
chain 1: EVQLVESGGGLVQPGRSLTLSCAASGFTYDEYAMHWVRQAPGKGLEWVSGITWNSGTIDYADSVKGRFIISRDNAKNSLYLHMRSLRAEDTALYYCAKDRGRDGDYGLDVWGHGTSVTVSS
chain 2: SYVLTQAPSVSVAPGKTAKIFCGANNSGGKGVHWYQLKPGQAPILVVYDDSDRPSGIPERFSGSNSDNTATLTISRVEAGDEADYYCQVWDSSGDHPVFGGGTKLTVL
B11: BD56-1805 (protein)
chain 1: QVQLVQSGAEVKKPGSSVKVSCKASGGTFSSYGISWVRQAPGQGLEWMGGIIPILGIANYAEKFQGRVTITADKSTGTADMELSSLRSEDTAVYYCAREWPHCRSTSCYGWWGQGTLVTVSS
chain 2: QSVLTQPPSVSGAPGQRVTISCTGTNSNIGAGYDVHWYQQLPGTAPKLLIFDNNNRPSGVPDRFSGSKSGTSASLAITGLQAEDEADYYCQSYDSSLIGSVFGGGTKLTVL
B12: BD56-1807 (protein)
chain 1: QVQLVQSGAEVKKPGSSVKVSCKASGGTFSSNSITWVRQAPGEGLEWMGGIIPILGVANYALKLQGRVTITVDRSTRTAYMELRSLRSDDTAVYYCAEEVGYSGYGATAWFDPWGQGTLVTVSS
chain 2: QSLLTQSPSVSGAPGQRVTISCTGSNSNIGAGYDVHWYQQLPGTAPKLLISANTNRPSGVPDRFSGSKSGTSASLAITGLQAEDEADYYCQSYDSSLSGPVFGRGTKLTVL

What was measured:
Assay in all cases: pseudovirus neutralization IC50; higher = weaker neutralization
[1] = molecular target: SARS-CoV-2 Omicron BA.1 spike pseudovirus
Method: (§1)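 Single-round VSV luciferase pseudovirus mixed with antibody dilutions for 1 h and put on Huh-7 cells for about a day; IC50 from the dose curve.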

[2] = molecular target: SARS-CoV-2 Omicron BA.2 spike pseudovirus
Method: as §1

[3] = molecular target: SARS-CoV-2 Omicron BA.2.75 spike pseudovirus
Method: as §1

[4] = molecular target: SARS-CoV-2 Omicron BA.5 spike pseudovirus
Method: as §1

[5] = molecular target: SARS-CoV-2 Omicron BQ.1.1 spike pseudovirus
Method: as §1

[6] = molecular target: SARS-CoV-2 Omicron XBB spike pseudovirus
Method: as §1

[7] = molecular target: SARS-CoV-2 early D614G spike pseudovirus
Method: as §1

Binder	pseudovirus neutralization IC50 [1]	pseudovirus neutralization IC50 [2]	pseudovirus neutralization IC50 [3]	pseudovirus neutralization IC50 [4]	pseudovirus neutralization IC50 [5]	pseudovirus neutralization IC50 [6]	pseudovirus neutralization IC50 [7]
B1	> 10 µg/mL	> 10 µg/mL	> 10 µg/mL	> 10 µg/mL	> 10 µg/mL	> 10 µg/mL	> 10 µg/mL
B2	0.00349 µg/mL	0.00129 µg/mL	0.111 µg/mL	2.03 µg/mL	> 10 µg/mL	> 10 µg/mL	0.05 µg/mL
B3	> 10 µg/mL	> 10 µg/mL	> 10 µg/mL	> 10 µg/mL	> 10 µg/mL	> 10 µg/mL	> 10 µg/mL
B4	0.702 µg/mL	0.717 µg/mL	1.07 µg/mL	2.51 µg/mL	1.24 µg/mL	1.18 µg/mL	2.65 µg/mL
B5	0.0298 µg/mL	0.041 µg/mL	0.00968 µg/mL	> 10 µg/mL	> 10 µg/mL	> 10 µg/mL	0.0195 µg/mL
B6	> 10 µg/mL	> 10 µg/mL	> 10 µg/mL	> 10 µg/mL	> 10 µg/mL	> 10 µg/mL	> 10 µg/mL
B7	0.209 µg/mL	0.013 µg/mL	0.00514 µg/mL	0.272 µg/mL	> 10 µg/mL	0.494 µg/mL	0.0262 µg/mL
B8	> 10 µg/mL	> 10 µg/mL	> 10 µg/mL	> 10 µg/mL	> 10 µg/mL	> 10 µg/mL	0.243 µg/mL
B9	0.0737 µg/mL	0.0364 µg/mL	0.0698 µg/mL	> 10 µg/mL	> 10 µg/mL	> 10 µg/mL	0.432 µg/mL
B10	0.0123 µg/mL	0.0321 µg/mL	0.00609 µg/mL	0.0622 µg/mL	> 10 µg/mL	> 10 µg/mL	0.0146 µg/mL
B11	0.0349 µg/mL	0.0847 µg/mL	0.0268 µg/mL	> 10 µg/mL	> 10 µg/mL	> 10 µg/mL	0.131 µg/mL
B12	0.0734 µg/mL	0.0579 µg/mL	0.0571 µg/mL	1.8 µg/mL	1.62 µg/mL	1.41 µg/mL	0.303 µg/mL
